# Earlier results in US20210322464A1, “METHOD OF TREATING AND PREVENTING CORONAVIRUS DISEASE 19 (COVID-19) USING A SELENIUM ADMINISTRATION” (priority 2020, published 2021).
# Details: humans; cited from earlier work
smiles,measurement,value
[Se] [Selenium],whole blood Selenium levels at which symptoms of toxicity have been reported,"above 1,000 μg/L"
